Target: TacT (Salmonella enterica, UniProt A0A0F6B8D8)
Test: acetylation of aminoacyl-tRNA, acid-urea PAGE autoradiography
Conditions: co-substrate aminoacyl-tRNA; 0.2 mM [14C]Ac-CoA in cell-free expression assay; labelled compound

By UniProt entry, the sequences of proteins in these tests, tags left out. Where a name states a change or a piece, a line headed by the entry shows the natural chain unless it says otherwise.
UniProt A0A0F6B8D8: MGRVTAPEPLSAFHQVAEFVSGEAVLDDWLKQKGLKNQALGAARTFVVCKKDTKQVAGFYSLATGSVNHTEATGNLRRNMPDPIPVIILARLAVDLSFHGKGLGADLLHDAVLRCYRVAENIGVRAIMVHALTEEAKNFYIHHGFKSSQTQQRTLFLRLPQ

## CC(=O)SCCNC(=O)CCNC(=O)[C@H](O)C(C)(C)COP(=O)(O)OP(=O)(O)OC[C@H]1O[C@@H](n2cnc3c(N)ncnc32)[C@H](O)[C@@H]1OP(=O)(O)O
  acetylation of aminoacyl-tRNA, acid-urea PAGE autoradiography: purified TacT, TacT2STm, TacT2SEn or TacT3, added from the onset of the assay
